In publication PMC5693944:
For at least one entry, the source does not settle the construct or the ends of the probe. At least one verdict was read from the data and is not stated in words by the source.

Target: MucR (Brucella abortus 2308) (UniProt Q2YMR3)
Test: EMSA
Settings: no netropsin; recombinant protein; residues 1-142

“GGCGCCGAAATAACGGAGCG (double strand) [Core2]”: binds.
